For test [1], the target named is T1, CCR5 (Homo sapiens, UniProt P51681).
T1 construct: host or cells: CEM.NKR-CCR5 (transduced human T cell leukemia line)
The test is described as follows: Competition binding: inhibition of PRO 140-PE binding to CEM.NKR-CCR5 cells (flow cytometry). The settings on record: based on MFI data; 5 nM PRO 140-PE. The protocol: Cells were washed and then analyzed by flow cytometry for both the mean fluorescence intensity (MFI) of binding and the percent of cells gated for positive binding of PRO 140-PE. Inhibition was assessed on the basis of both MFI (A) and percent cells gated (B).
Azide was added to block CCR5 internalization during the assay. Cells were washed in PBSA and incubated with 5 nM PRO 140-PE for an additional 30 minutes prior to washing and analysis by flow cytometry using a FACSCalibur instrument (Becton Dickinson). The extent of PRO 140-PE binding was measured in terms of both the mean fluorescence intensity (MFI) and the percent of cells gated for positive staining.

By UniProt entry, the sequences of proteins in these tests, tags left out.
UniProt P51681, whole entry: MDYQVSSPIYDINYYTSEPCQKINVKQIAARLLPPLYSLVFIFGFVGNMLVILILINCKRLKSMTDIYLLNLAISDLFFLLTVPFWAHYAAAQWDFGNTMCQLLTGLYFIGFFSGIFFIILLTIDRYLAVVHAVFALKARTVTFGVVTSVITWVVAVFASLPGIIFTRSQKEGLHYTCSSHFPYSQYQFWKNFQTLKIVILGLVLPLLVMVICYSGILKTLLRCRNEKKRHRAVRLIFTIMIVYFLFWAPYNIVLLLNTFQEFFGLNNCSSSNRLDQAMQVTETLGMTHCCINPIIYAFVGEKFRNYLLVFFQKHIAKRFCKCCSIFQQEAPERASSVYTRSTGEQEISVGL

The target in test [2] is HIV-1JR-FL envelope-mediated membrane fusion (HeLa-EnvJRFL and CEM NKR-CCR5 cells) (Homo sapiens, UniProt P51681). The settings on record: labelled 1st inhibitor with 2nd inhibitor PRO 140, equimolar; mean ± SD of 4-12 assays.

Here are results for one molecule from US20090074766A1, “Methods of inhibiting HIV-2 infection” (priority 2007, published 2009).

B1: PRO 140: humanized IgG4,κ anti-CCR5 monoclonal antibody, humanized version of murine mAb PA14 (antibody, chains of the INN, looked up, V domains shown)
VH: EVQLVESGGGLVKPGGSLRLSCAASGYTFSNYWIGWVRQAPGKGLEWIGDIYPGGNYIRNNEKFKDKTTLSADTSKNTAYLQMNSLKTEDTAVYYCGSSFGSNYVFAWFTYWGQGTLVTVSS
VL: DIVMTQSPLSLPVTPGEPASISCRSSQRLLSSYGHTYLHWYLQKPGQSPQLLIYEVSNRFSGVPDRFSGSGSGTDFTLKISRVEAEDVGVYYCSQSTHVPLTFGQGTKVEIK
In test [1], B1 showed an EC50 of 2.5 nM. In test [2], this molecule yielded a CI90 of 0.97.
